Tests used:
CHIKV = type: cell-based, Chikungunya virus; details: human fibroblasts (HFF-1), eight-dose response
[1] = test system: RNA viruses (CHIKV, WNV, EV-D68, SARS-CoV-2); type: cell-based

IFN-β
IC50, antiviral activity against CHIKV (CHIKV): 0.01969 µg/mL
antiviral activity across all tested RNA viruses [1]: potent antiviral activity
